This series in a line: peptide synthesis.

HELM strings list residues between dots; [ac] is acetyl, [am] amide, other brackets name non-standard units.

Take “PEPTIDE1{[ac].D.[dE].I.V.[Hyp(4-Bn)].[azaNva].[S-NHCHMePh]}$$$$V2.0”: where the note is “late stage modification step”, the step yield is 27% and the “final HPLC purity” value was found to be 98%.

“PEPTIDE1{[ac].D.[dE].I.V.[Hyp(4-Bn)].[Nva].[NHBn]}$$$$V2.0”: the step yield runs as follows: (coupling step) 89%; (late stage modification step) 39%. Further, the “final HPLC purity” value (late stage modification step) is on record as 98.5%.

In the case of “PEPTIDE1{[ac].D.[dE].I.V.[Hyp(4-Bn)].[Nva].[S-NHCHMePh]}$$$$V2.0”, the “final HPLC purity” value (late stage modification step) is recorded as 99.9%.

These data come from US6143715A (priority 1998, dated 2000).
